Molecular target: T1, CfaRfull-HIS6 (Streptomyces scabies 87-22) (UniProt C9ZEC8)
T1 sequence: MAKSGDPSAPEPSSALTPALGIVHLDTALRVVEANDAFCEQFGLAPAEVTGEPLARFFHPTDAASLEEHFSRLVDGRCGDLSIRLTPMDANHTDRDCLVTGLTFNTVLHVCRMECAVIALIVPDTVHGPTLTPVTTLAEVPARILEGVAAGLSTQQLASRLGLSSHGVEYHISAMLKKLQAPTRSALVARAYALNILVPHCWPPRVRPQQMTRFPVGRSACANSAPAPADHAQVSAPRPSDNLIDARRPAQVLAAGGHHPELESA
Assay: EMSA
Conditions: 50 ng DNA, 3.7 pmol protein; LightShift Chemiluminescent EMSA kit per manufacturer; pH and temperature not stated; recombinant protein; residues 1-265; protein details: C-terminal His6; probe letters rebuilt from the primers and the genome

Sequence: GCACAGGAAGGAGGAGAACCCCTCACCTCGGGCCCTTGGACCCGACACACCCGCAGCGCGTGCGACGGTTCCTGCGCCGGCCGGCCTGACAAACCAGGGCGAGACGCCGCATCTGCGGAACCGGTCGACCCGCAGACGAATCGTGGCCGACGCCAACCCGAATGCGGGGACTAGGGATTCTCCTAGTCGACCTTCGTTCTGTAGCCCTTGTATGGTCGCATTGCCTCCGCAGGTCGACCCCTTTCGGCACCATAGGAGACCCTCTTGGCGAACATCGAATCGACCATCAAGCACATCCTGGTCGACGATCTCTTCATCACTGTGCCG (double strand) [fragment a]
- binding result: binds
